Measured values from several laboratories, pooled; numbers as filed in NIAID ChemDB.

Common to all: cytotoxicity tests; cells: MT-4; read-out: CC50

Neighbouring rows are from separate reports.

{"SMILES": "Cc1cccc(O)c1O", "result": "92 µg/mL"}
{"SMILES": "Nc1ncnc2c1ncn2[C@H]1C[C@@H](O)[C@H](CO)O1", "result": ">1000 µM"}
{"SMILES": "CN(C)C(=O)C(=O)N(C)CC1c2nc(C(=O)NCc3ccc(F)cc3)c(O)c(=O)n2CCN1C", "method": "microscopy", "result": ">10 µM"}
{"SMILES": "CC1(C)[C@@H](CCO)C[C@H]1n1nnc2c(Cl)nc(N)nc21", "result": "190 µg/mL"}
{"SMILES": "Cc1ccc(C(=O)Nc2ccc(S(=O)(=O)O)c3cc(S(=O)(=O)O)cc(S(=O)(=O)O)c23)cc1NC(=O)c1cccc(NC(=O)Nc2cccc(C(=O)Nc3cc(C(=O)Nc4ccc(S(=O)(=O)O)c5cc(S(=O)(=O)O)cc(S(=O)(=O)O)c45)ccc3C)c2)c1", "result": "320 µg/mL"}
{"SMILES": "N#Cc1c(-c2ccc(Cl)cc2)c2c(n([C@@H]3O[C@H](CO)[C@@H](O)[C@H](O)[C@H]3O)c1=S)-c1ccccc1C2", "result": "3.01 µM"}
{"SMILES": "Nc1nc2c(ncn2[C@H]2C=C[C@@H](CO)[C@@H]2CO)c(=O)[nH]1", "result": ">100 µg/mL"}
{"SMILES": "Cn1c(=O)cc(Oc2nc(Nc3ccc(C#N)cc3)nc(Nc3cnccn3)n2)c2ccccc21", "method": "MTT", "result": "83.58 µg/mL"}
{"SMILES": "COC(=O)CSc1cnc(Nc2ccc(C#N)cc2)nc1Oc1c(C)cc(C#N)cc1C", "method": "MTT", "result": "33.2 µM"}
{"SMILES": "CC1(C)[C@@H](CCO)C[C@H]1n1nnc2c(=O)[nH]c(N)nc21", "result": "≥250 µg/mL"}
{"SMILES": "Cc1ccc(Sc2c(C(=O)NNCCO)[nH]c3ccc(Cl)cc23)cc1", "method": "MTT", "result": ">100 µM"}
{"SMILES": "CC(C)=CCN1Cc2cccc3[nH]c(=O)n(c23)CC1C", "result": ">870 µM"}
{"SMILES": "O=c1ccn([C@H]2C[C@@H](O)[C@H](CO)O2)c(=O)[nH]1", "result": ">100 µM"}
{"SMILES": "FC(F)(F)c1ccc2c(c1)nc(CCl)c1cccn12", "method": "MTT", "result": "18 µM"}
{"SMILES": "COc1cc(-c2nnc(Sc3nc(Nc4ccc(C#N)cc4)nc(Oc4cc(=O)n(C)c5ccccc45)n3)o2)cc(OC)c1OC", "method": "MTT", "result": "65.13 µg/mL"}
{"SMILES": "Cc1ccc(Sc2c(C(=O)NNCCO)[nH]c3ccc(Cl)cc23)c(C)c1", "method": "MTT", "result": "66 µM"}
{"SMILES": "O=C(O)Cc1ccc(O)c(O)c1", "result": "142 µg/mL"}
{"SMILES": "C=C1C(=O)O[C@H]2C[C@H](C)[C@@H]3CC[C@@](C)(O)[C@@H]3C[C@H]12", "method": "MTT", "result": "0.5 µg/mL"}
{"SMILES": "CCOC(=O)CCC(NC(=O)c1ccc(OCc2nc3ccccc3n3cccc23)cc1)C(=O)OCC", "method": "MTT", "result": ">100 µM"}
{"SMILES": "Cc1cc(C#N)cc(C)c1Oc1nc(Nc2ccc(C#N)cc2)ncc1SCC(N)=O", "method": "MTT", "result": ">208.4 µM"}
{"SMILES": "CCOC(=O)CCC(NC(=O)c1ccc(OCc2nc3cc(C(F)(F)F)ccc3n3cccc23)cc1)C(=O)OCC", "method": "MTT", "result": "68 µM"}
{"SMILES": "Cn1c(=O)cc(Oc2nc(Nc3ccc(C#N)cc3)nc(Oc3cc(=O)oc4ccccc34)n2)c2ccccc21", "method": "MTT", "result": "69.2 µg/mL"}
{"SMILES": "CC1=C[C@H](Cn2cnc3c(=O)[nH]c(N)nc32)C[C@@H]1CO", "method": "MTT", "result": ">100 µg/mL"}
{"SMILES": "COCCNC(=O)CSc1cnc(Nc2ccc(C#N)cc2)nc1Oc1c(C)cc(C#N)cc1C", "method": "MTT", "result": "26.4 µM"}
{"SMILES": "COc1cc(OCc2nc3ccccc3n3cccc23)cc(OC)c1OC", "method": "MTT", "result": "55 µM"}
{"SMILES": "CN1CCn2c(nc(C(=O)NCc3ccc(F)cc3)c(O)c2=O)C(N(C)Cc2ccccc2)C1", "method": "microscopy", "result": ">10 µM"}
{"SMILES": "Cn1c(=O)cc(Oc2nc(Nc3ccc(C#N)cc3)nc(Sc3nnc(-c4ccncc4)o3)n2)c2ccccc21", "method": "MTT", "result": "68.75 µg/mL"}
{"SMILES": "CCOC(=O)c1ccc(Nc2nc3ccccc3n3cccc23)cc1", "method": "MTT", "result": "100 µM"}
{"SMILES": "CN(C)C(=O)C(=O)N(C)C1CN(S(C)(=O)=O)CCn2c1nc(C(=O)NCc1ccc(F)cc1)c(O)c2=O", "method": "microscopy", "result": ">1 µM"}
{"SMILES": "Oc1cccc(O)c1O", "result": "98 µg/mL"}
{"SMILES": "CC1(C)[C@@H](CCO)C[C@H]1n1cnc2c(=O)[nH]c(N)nc21", "result": "≥250 µg/mL"}
{"SMILES": "Cc1ccc(O)c(O)c1", "result": "98 µg/mL"}
{"SMILES": "Nc1ccn([C@H]2C[C@@H](O)[C@H](CO)O2)c(=O)n1", "result": ">1 µM"}
{"SMILES": "O=C(O)CCc1ccc(O)c(O)c1", "result": "91 µg/mL"}
{"SMILES": "Cn1c(=O)cc(Oc2nc(Nc3ccc(C#N)cc3)nc(Nc3nc4ccccc4s3)n2)c2ccccc21", "method": "MTT", "result": "82.93 µg/mL"}
{"SMILES": "O=C(O)/C=C/c1ccc(O)c(O)c1", "result": "88 µg/mL"}
{"SMILES": "CN1CCn2c(nc(C(=O)NCc3ccc(F)cc3)c(O)c2=O)C(N(C)S(C)(=O)=O)C1", "method": "microscopy", "result": ">1 µM"}
{"SMILES": "Cc1cc(C#N)cc(C)c1Oc1nc(Nc2ccc(C#N)cc2)ncc1SCC(=O)NCCN1CCN(C(=O)OC(C)(C)C)CC1", "method": "MTT", "result": "20.2 µM"}
{"SMILES": "O=C(NCCO)c1[nH]c2ccc(Cl)cc2c1S(=O)(=O)c1ccccc1", "method": "MTT", "result": ">100 µM"}
{"SMILES": "O=C(O)c1ccc(OCc2nc3cc(C(F)(F)F)ccc3n3cccc23)cc1", "method": "MTT", "result": ">100 µM"}
{"SMILES": "Cn1nnnc1CN1CCn2c(nc(C(=O)NCc3ccc(F)cc3)c(O)c2=O)C1(C)C", "method": "microscopy", "result": ">1 µM"}
{"SMILES": "Cc1cn([C@@H]2O[C@@H](CO)[C@H](O)[C@H]2O)c(=O)[nH]c1=O", "result": ">1000 µM"}

A second listing of 5 rows from above:

SMILES	method	result
Nc1ccn([C@H]2C[C@@H](O)[C@H](CO)O2)c(=O)n1		>1 µM
CC1=C[C@H](Cn2cnc3c(=O)[nH]c(N)nc32)C[C@@H]1CO	MTT	>100 µg/mL
O=C(O)Cc1ccc(O)c(O)c1		142 µg/mL
Cc1ccc(O)c(O)c1		98 µg/mL
CC1(C)[C@@H](CCO)C[C@H]1n1nnc2c(Cl)nc(N)nc21		190 µg/mL

CCn is the concentration with n% toxicity to the cells. An empty or dashed field is not shown.